Results: article doi:10.1101/2022.04.26.489556

Target: T1, Rv1019 (TetR family regulator) (UniProt P96381)
T1 sequence (looked up, limits assumed): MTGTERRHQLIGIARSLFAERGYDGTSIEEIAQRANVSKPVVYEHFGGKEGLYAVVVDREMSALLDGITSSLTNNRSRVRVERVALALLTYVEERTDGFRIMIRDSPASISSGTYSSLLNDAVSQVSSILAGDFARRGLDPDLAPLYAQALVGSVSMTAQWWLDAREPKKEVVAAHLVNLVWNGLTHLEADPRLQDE
Assay: EMSA
Details: increasing Rv1019 (2-10 uM), 5 nM DNA

“TAGGTTACGGTACCGTAGCTTT (double strand) [Rv3230c PAL (12-bp inverted repeat with 5-bp flanks)]”: binds.

The exact form of at least one protein or probe is not confirmed. Protein sequences can lack the tags named with them.
